Anti-infective test results gathered from many reports (values: NIAID ChemDB through PubChem).

All rows: toxicity to cultured cells; cell line: C8166; measure: CC50

Blank or dashed fields: not listed here. CCn: concentration that lowers growth or viability of the cells by n%. Neighbouring rows are from separate reports.

smiles	read by	value
O=C(CC1(O)C(=O)Nc2ccc(Cl)cc21)c1ccccc1	MTT	>400 µM
CCC(CC)NC(=O)C[C@@H](C(=O)NC[C@@H](O)[C@H](Cc1ccccc1)NC(=O)[C@@H](NC(=O)c1cnc2ccccc2n1)C(C)C)C(C)(C)C		>1 µM
Cc1cn([C@H]2C[C@H](N=[N+]=[N-])[C@@H](CO)O2)c(=O)[nH]c1=O		>100 µM
C[C@H](CO)[C@H]1CC[C@@]2(C)C3C=C[C@@]45OC(=O)[C@]3(CC[C@]12C)C4CCC(=O)C5(C)C		>200 µg/mL
Cc1nc(CCCCCCC(O)c2ccccc2)n2nc(Cl)ccc12		>0.08 µM
O=C(CC1(O)C(=O)Nc2ccc(Br)cc21)c1ccccc1	MTT	157.2 µM
COc1cc([C@@H]2c3c(cc(OC)c(O)c3OC)C[C@H](CO)[C@H]2CO)cc(OC)c1O	MTT	>200 µM
CC1=CCCC2C1(C)CCC(C)[C@@]2(C)CC1=CC(=O)C(NC(CS(=O)(=O)O)C(=O)O)=CC1=O		22.3 µM
CCN1c2ncc(COc3ccccc3)cc2C(=O)N(C)c2ccc(Cl)nc21	MTT	>60 µM
C[C@H](CC(=O)CC(C)(C)O)[C@H]1CC[C@@]2(C)C3C(=O)[C@@H]4O[C@]45C(CCC(=O)C5(C)C)[C@]3(C=O)CC[C@]12C		>200 µg/mL
CC(C)=CCC/C(C)=C/CC/C(C)=C/CC/C(C)=C/Cc1cc(O)cc2c1OC(=O)C2	MTT	5.12 µM
CCO[C@H]1C[C@H](n2cc(C)c(=O)[nH]c2=O)O[C@@H]1COP(=O)(OCC(Cl)(Cl)Cl)OCC(Cl)(Cl)Cl		150 µM
O=C(CC1(O)C(=O)Nc2ccccc21)c1ccc(F)cc1	MTT	>400 µM
C[C@@H]1C(=O)[C@@]2(C)CC[C@]34C[C@]56OC(=O)C[C@H]5O[C@@](C)(CO)[C@@H]6CC[C@@]3(O)C(=O)[C@@]3(O[C@@]5(C[C@H](C)C(=O)O5)[C@@H]1[C@H]32)O4	MTT	88 µg/mL
CC(=O)OC(C1C=C(C)C(=O)O1)C(C)C1C2C3(O)OC4(CCC12C)C(=CCC1C(C)(C)OC2CC(=O)OC21C4O)C3=O	MTT	92.3 µg/mL
CC1=CCCC2C1(C)CCC(C)[C@@]2(C)CC1=CC(=O)C(NC(CC(C)C)C(=O)O)=CC1=O		8.8 µM
O=C(/C=C/c1ccc(O)c(O)c1)O[C@H]1[C@H](O)C[C@](O)(C(=O)O)C[C@H]1OC(=O)/C=C/c1ccc(O)c(O)c1		40 µg/mL
CC(C)=CCN1Cc2cc(Cl)cc3[nH]c(=S)n(c23)C[C@@H]1C		>10 µM
CCC(CC)NC(=O)C[C@@H](C(=O)NC[C@@H](O)[C@H](Cc1ccccc1)NC(=O)[C@@H](NC(=O)c1cnc2ccccc2n1)C(C)O)C(C)(C)C		>1 µM
Cc1cccc(C)c1OCC(=O)N[C@@H](Cc1ccccc1)[C@H](O)CN1CC[C@@H](SCc2cccnc2)C[C@H]1C(=O)NC(C)(C)C		>1 µM
Nc1ncnc2c1ncn2[C@H]1C=C[C@@H](CO)O1		97 µM
C=C(C)[C@@]1(OC(C)=O)[C@H](OC(C)=O)[C@@H]2[C@H](OC(C)=O)[C@@]3(C)O[C@@]4([C@@H]3O)[C@@H](OC(=O)c3ccccc3)[C@@H](C)C[C@H]4[C@@]2(O)[C@H](C)[C@@H]1OC(=O)c1ccccc1	MTT	>200 µM
CC(C)[C@H](NC(=O)c1ccc2ccccc2n1)C(=O)N[C@@H](Cc1ccccc1)[C@H](O)CN1CC[C@@H](OCc2ccncc2)C[C@H]1C(=O)NC(C)(C)C		>1 µM
CC1=CCCC2C1(C)CCC(C)[C@@]2(C)CC1=CC(=O)C(N[C@@H]2C(O)O[C@@H](CO)C(O)C2O)=CC1=O		7.1 µM
COc1ccccc1C(=O)CC1(O)C(=O)Nc2ccc(Cl)cc21	MTT	>400 µM
CCOC(=O)c1ccc(COP(=O)(OCc2ccc(C(=O)OCC)cc2)OC[C@H]2O[C@@H](n3cc(C)c(=O)[nH]c3=O)C[C@@H]2N=[N+]=[N-])cc1	MTT	1 µM
CC(C)(C)NC(=O)[C@@H]1C[C@@H]2CCCC[C@@H]2CN1C[C@@H](O)[C@H](Cc1ccccc1)NC(=O)[C@H](CC(N)=O)NC(=O)c1ccc2ccccc2n1	MTT	90 µM
Cc1cn([C@H]2C[C@H](N=[N+]=[N-])[C@@H](COP(=O)(O)O)O2)c(=O)[nH]c1=O	MTT	>1000 µM
O=C1C[C@@H](c2cc(O)ccc2O)Oc2cc(O[C@@H]3C[C@@H](O)[C@H](O)[C@@H](CO)O3)cc(O)c21		>100 µg/mL
C[C@H](C/C=C/C(C)(C)O)[C@H]1CC[C@@]2(C)C3C=C[C@@]45O[C@H](O)[C@]3(CC[C@]12C)C4CC[C@H](O)C5(C)C		60 µg/mL
Cc1cn([C@H]2C[C@H](N=[N+]=[N-])[C@@H](CO)O2)c(=O)[nH]c1=O	MTT	749.9 µM
CCC(CC)NC(=O)C[C@@H](C(=O)NC[C@@H](O)[C@H](Cc1ccccc1)NC(=O)[C@@H](NC(=O)OCc1ccccc1)C(C)C)C(C)(C)C		>1 µM
CC(=O)O[C@H]1C[C@H](n2cc(C)c(=O)[nH]c2=O)O[C@@H]1COP(=O)(OCC(Cl)(Cl)Cl)OCC(Cl)(Cl)Cl		>100 µM
C=C(C)[C@@]12OC3(c4ccccc4)O[C@@H]1[C@@H]1[C@H](O)[C@](O)(CO)[C@@H](O)[C@]4(O)C(=O)[C@@H](C)C=C4[C@@]1(O3)[C@H](C)[C@H]2OC(=O)c1ccccc1	MTT	>200 µM
CC(C)=CCC/C(C)=C/CC/C(C)=C/CC/C(C)=C/Cc1cc(O)cc2c1OC(=O)C2=C(C)C	MTT	31.73 µM
Cc1cccc(C(=O)CC2(O)C(=O)Nc3ccccc32)c1	MTT	>400 µM
CC1=CCCC2C1(C)CCC(C)[C@@]2(C)Cc1cc(=O)c2nc3[nH]cnc4ncn(c2c1=O)c43		28.2 µM
Cc1nc(CCCCCOC(=O)c2ccccc2)n2nc(Cl)ccc12		>1.6 µM
C=C(C)[C@@]1(OC(=O)c2ccccc2)[C@H](OC(C)=O)[C@@H]2[C@H](OC(C)=O)[C@@]3(C)O[C@@]4([C@@H]3O)[C@@H](O)[C@@H](C)C[C@H]4[C@@]2(O)[C@H](C)[C@@H]1OC(C)=O	MTT	>200 µM
CC(C)=CC(=O)C[C@@H](C)[C@H]1CC[C@@]2(C)C3C(=O)C=C4C(CCC(=O)C4(C)C)[C@]3(C=O)CC[C@]12C		92.1 µg/mL
COc1cccc(C(=O)CC2(O)C(=O)Nc3ccc(Cl)cc32)c1	MTT	>400 µM
Cc1cn([C@H]2C[C@H](N=[N+]=[N-])[C@@H](COP(=O)(OCc3ccccc3)OCc3ccccc3)O2)c(=O)[nH]c1=O	MTT	>100 µM
C=C(C)[C@@]12OC3(c4ccccc4)O[C@@H]1[C@@H]1[C@@H]4O[C@]4(CO)[C@@H](O)[C@]4(O)C(=O)C(C)=C[C@H]4[C@@]1(O3)[C@H](C)[C@H]2OC(=O)C(C)C	MTT	>200 µM
CC1=CCC[C@H]2[C@](C)(Cc3cc(O)ccc3O)[C@@H](C)CC[C@]12C		9.2 µM
O=c1c2cccn2c2cccc(F)c2n1CCNC(=S)Nc1ccc(Br)cn1		200 µM
Cc1c(O)cccc1C(=O)N[C@@H](Cc1ccccc1)[C@H](O)CN1CC[C@@H](OCc2ccncc2)C[C@H]1C(=O)NC(C)(C)C		>1 µM
CC1(C)C(=O)CCC2[C@]34CC[C@]5(C)C(=O)CC[C@@]5(C)C3C=C[C@@]21OC4=O		>200 µg/mL
Cc1nc(CCCCCCC(=O)c2ccccc2)n2nc(-n3cccc3)ccc12		>0.007 µM
Cc1cn([C@H]2C[C@H](N=[N+]=[N-])[C@@H](COP(=O)(OCc3ccc(C(=O)OC(C)C)cc3)OCc3ccc(C(=O)OC(C)C)cc3)O2)c(=O)[nH]c1=O	MTT	1 µM
O=C1c2c(O)cc(O)c(O)c2O[C@H](c2ccc(O)cc2)[C@H]1O		>100 µg/mL
COC(=O)[C@H](C)NP(=O)(OC[C@@H]1C=C[C@H](n2cnc3c(N)ncnc32)O1)Oc1ccccc1		19 µM
C=C(C)[C@@]1(OC(=O)c2ccccc2)[C@H](OC(C)=O)[C@@H]2[C@H](OC(C)=O)[C@@]3(C)O[C@@]4([C@@H]3OC(C)=O)[C@@H](OC(=O)c3ccccc3)[C@@H](C)C[C@H]4[C@@]2(O)[C@H](C)[C@@H]1OC(C)=O	MTT	>200 µM
Cc1nc(CCCCCCC(=O)c2ccccc2)n2nc(Cl)ccc12		>0.08 µM
O=C(O)C1(O)C[C@@H](O)C(O)[C@H](O)C1		>250 µg/mL
O=c1c2cccn2ccn1CCNC(=S)Nc1ccc(Br)cn1		22.5 µM
CCNC1=CC(=O)C(C[C@]2(C)C(C)CCC3(C)C(C)=CCCC32)=CC1=O		18.6 µM
Cc1cn([C@H]2C[C@H](N=[N+]=[N-])[C@@H](CO)O2)c(=O)[nH]c1=O		500 µM
Cc1cccc(C)c1OCC(=O)N[C@@H](Cc1ccccc1)[C@H](O)CN1C[C@H]2CCCC[C@H]2C[C@H]1C(=O)NC(C)(C)C		>10 µM
O=C1c2c(O)cc(O[C@@H]3C[C@@H](O)[C@H](O)[C@@H](CO)O3)cc2O[C@H](c2ccc(O)cc2)[C@H]1O		200 µg/mL
Cc1cn([C@H]2C[C@H](N=[N+]=[N-])[C@@H](COP(=O)(OCc3ccc(C(=O)OC(C)(C)C)cc3)OCc3ccc(C(=O)OC(C)(C)C)cc3)O2)c(=O)[nH]c1=O	MTT	>100 µM
CCN1c2ncc(COc3ccncc3)cc2C(=O)N(C)c2ccc(Cl)nc21	MTT	>120 µM
C=C(C)[C@@H]1CC[C@]2(CC(=O)O)CC[C@]3(C)C(CCC4[C@@]5(C)CCC(=O)C(C)(C)C5CC[C@]43C)C12	MTT	1.52 µM
O=C(CCCCCCc1ncc2ccc(Cl)nn12)c1ccccc1		>0.34 µM
C=C(C)[C@@H]1CC[C@]2(CCO)CC[C@]3(C)C(CCC4[C@@]5(C)CC/C(=C\O)C(C)(C)C5CC[C@]43C)C12	MTT	139 µM
O=C(CC1(O)C(=O)Nc2ccc(Br)cc21)c1ccc(F)cc1	MTT	>400 µM
COc1cc(OC2O[C@H](CO)[C@@H](O)[C@H](O)[C@H]2O)cc(OC)c1OC	MTT	>200 µM
CCC(CC)NC(=O)C[C@@H](C(=O)NC[C@@H](O)[C@H](Cc1ccccc1)NC(=O)[C@H](CC(N)=O)NC(=O)c1ccc2ccccc2n1)C(C)(C)C		>1 µM

Repeating the first 5 entries:

smiles | read by | value
O=C(CC1(O)C(=O)Nc2ccc(Cl)cc21)c1ccccc1 | MTT | >400 µM
CCC(CC)NC(=O)C[C@@H](C(=O)NC[C@@H](O)[C@H](Cc1ccccc1)NC(=O)[C@@H](NC(=O)c1cnc2ccccc2n1)C(C)C)C(C)(C)C |  | >1 µM
Cc1cn([C@H]2C[C@H](N=[N+]=[N-])[C@@H](CO)O2)c(=O)[nH]c1=O |  | >100 µM
C[C@H](CO)[C@H]1CC[C@@]2(C)C3C=C[C@@]45OC(=O)[C@]3(CC[C@]12C)C4CCC(=O)C5(C)C |  | >200 µg/mL
Cc1nc(CCCCCCC(O)c2ccccc2)n2nc(Cl)ccc12 |  | >0.08 µM